Experimental data from article PMC9696605.

How the values were obtained:
[1] = test system: HLA-C1 in 721.221-ICP47-C1 cells; test: HLA-C1 surface expression (stabilization) in 721.221-ICP47-C1 cells; type: cell-based, human; conditions: 721.221-ICP47-C1 cells incubated overnight at 26 °C with peptide, gMFI, Figure 5a; pU24-6A p: 0.0012, pc: 0.004
[2] = test system: KIR2DL2 positive NK cells vs 721.221-ICP47-C1 cells; test: CAM cytotoxicity assay, 721.221-ICP47-C1 targets; conditions: NK cells from MS patients, 4 h, 26 °C, Figure 5c, MBP, pU24-6B, U24-7 p < 0.001, pU24-6A p: NS (Fisher exact test)

## CSCC[C@H](NC(=O)[C@@H](NC(=O)[C@H](CC(=O)O)NC(=O)[C@H](CC(N)=O)NC(=O)[C@H](Cc1ccc(O)cc1)NC(=O)[C@H](CO)NC(=O)[C@@H]1CCCN1C(=O)[C@@H]1CCCN1C(=O)[C@@H]1CCCN1C(=O)[C@@H](NC(=O)[C@H](CCC(=O)O)NC(=O)[C@H](Cc1c[nH]cn1)NC(=O)[C@@H](NC(=O)[C@@H](N)CCSC)[C@@H](C)O)[C@@H](C)O)C(C)C)C(=O)N[C@@H](CC(C)C)C(=O)O
[1]
  HLA-C1 expression / stabilization: lower binding affinity for HLA-C1
[2]
  Killing of 721.221-ICP47-C1 cells by KIR2DL2 positive NK cells: induced 721.221-ICP47-C1 cell killing
